Reference: publication PMC7540872, “A bacterial effector protein prevents MAPK-mediated phosphorylation of SGT1 to suppress plant immunity” (PLoS Pathogens, 2020)

B1: GST-AtSGT1a (natural protein, Arabidopsis, UniProt Q9SUR9 1-350, looked up)
chain: MAKELADKAKEAFVDDDFDVAVDLYSKAIDLDPNCAEFFADRAQAYIKLESFTEAVADANKAIELDPSLTKAYLRKGTACMKLEEYRTAKTALEKGASITPSESKFKKLIDECNFLITEEEKDLVQPVPSTLPSSVTAPPVSELDVTPTAKYRHEYYQKPEEVVVTVFAKGIPKQNVNIDFGEQILSVVIEVPGEDAYYLQPRLFGKIIPDKCKYEVLSTKIEICLAKADIITWASLEHGKGPAVLPKPNVSSEVSQRPAYPSSKKVKDWDKLEAEVKKQEKDEKLEGDAALNKFFREIYQNADEDMRRAMSKSFVESNGTVLSTNWQEVGTKTIESTPPDGMELKKWEI
B2: GST-AtSGT1b (natural protein, Arabidopsis, UniProt Q9SUT5 1-358, looked up)
chain: MAKELAEKAKEAFLDDDFDVAVDLYSKAIDLDPNCAAFFADRAQANIKIDNFTEAVVDANKAIELEPTLAKAYLRKGTACMKLEEYSTAKAALEKGASVAPNEPKFKKMIDECDLRIAEEEKDLVQPMPPSLPSSSTTPLATEADAPPVPIPAAPAKPMFRHEFYQKPEEAVVTIFAKKVPKENVTVEFGEQILSVVIDVAGEEAYHLQPRLFGKIIPEKCRFEVLSTKVEIRLAKAEIITWASLEYGKGQSVLPKPNVSSALSQRPVYPSSKPAKDWDKLEAEVKKQEKDEKLDGDAAMNKFFSDIYSSADEDMRRAMNKSFAESNGTVLSTNWKEVGTKKVESTPPDGMELKKWEY

Molecular target: His-SUMO-RipAC (Ralstonia solanacearum GMI1000, UniProt Q9RBS2 1-1024)
Assay: pull-down

Binder	binding result
B1	binds
B2	binds
